Results of unrelated studies side by side (data: NIAID ChemDB).

ECn is the concentration giving n% inhibition of infection, replication or growth.

compound	test	agent	strain or isolate	cell line	protein	read by	read-out	dose	value
Fc1ccc(N2CCCCC2)c(NC(=S)c2ccncc2)c1	host protein				DYRK1B	kinase activity	inhibition	10 µM	74.9%
CC(=O)c1cccc(-c2cncc(N3CCN(c4ccccc4F)CC3)n2)c1	target	Cytomegalovirus			UL97 kinase		IC50		<10 µM
Nc1ccc2c(O)cc(S(=O)(=O)[O-])cc2c1S(=O)(=O)[O-]	culture	Adenovirus	TYPE 3	Human amnion AV3 cells		cytopathic effect	inhibition	5 µg/mL	0%
N#Cc1ccccc1N1CCN(c2cncc(-c3ccc(F)c(Cl)c3)n2)CC1	target	Cytomegalovirus			UL97 kinase		IC50		<10 µM
O=C1C(c2[nH]c3ccc(S(=O)(=O)O)cc3c2O)=Nc2ccc(S(=O)(=O)O)cc21	culture	Herpes simplex virus		Human amnion AV3 cells		cytopathic effect	inhibition	50 µg/mL	0%
CCC(CC)[C@H](NC(C)=O)[C@@H]1[C@H](O)[C@@H](C(=O)O)C[C@H]1N=C(N)N	culture	Influenza A virus	H1N1 A/Bayern/09/95	MDCK		visual reading	EC50		0.42 µM
CCOC(=O)c1ccc(OCCC2CCN(c3ccc(C)nn3)CC2)cc1	culture	Rhinovirus	11757 (ICAM-1 receptor group 16)	KB		neutral red	EC50		0.016 µM
C=CCc1ccc(OC)c(OC)c1	culture	Candida glabrata	2624			turbidity	MIC90		350 µg/mL
Cc1nc(NCCCCNc2ccnc3cc(Cl)ccc23)nc(-c2ccccc2)c1C(=O)OC(C)C	culture	Cryptococcus gattii	135L/03				MIC99		8 µg/mL
O=C(Nc1ccc(S(=O)(=O)[O-])c2cccc(S(=O)(=O)[O-])c12)c1ccccc1	culture	Herpes simplex virus		Human amnion AV3 cells		cytopathic effect	inhibition	10 µg/mL	0%
O=[N+]([O-])c1ccc(C=Nc2ccccc2O)cc1	culture	Cryptococcus gattii	547/OTTI-97-PI-10				MIC99		16 µg/mL
COc1cc(-c2ccc(N=Nc3ccc4c(S(=O)(=O)O)cc(S(=O)(=O)O)c(N)c4c3O)c(OC)c2)ccc1N=Nc1ccc2c(S(=O)(=O)O)cc(S(=O)(=O)O)c(N)c2c1O	culture	Herpes simplex virus		Human conjunctiva cells		cytopathic effect	inhibition	10 µg/mL	30%
Oc1ccccc1N=Cc1ccc2c(c1)OCO2	culture	Cryptococcus neoformans	LMM 820			broth dilution	MIC		4 µg/mL
COc1ccc(N2CCN(c3cncc(-c4ccc(C(C)C)cc4)n3)CC2)cc1OC	target	Cytomegalovirus			UL97 kinase		IC50		<10 µM
Nc1cccc(S(=O)(=O)O)c1	culture	Herpes simplex virus		Human amnion AV3 cells		cytopathic effect	inhibition	5 µg/mL	33%
Fc1ccccc1N1CCN(c2cncc(-c3ccsc3)n2)CC1	target	Cytomegalovirus			UL97 kinase		inhibition	1 µM	<50%
Oc1ccccc1N=Cc1cccc(O)c1O	culture	Cryptococcus gattii	135L/03				MIC99		5.7 µg/mL
O=[N+]([O-])c1cc([N+](=O)[O-])c2ccc(S(=O)(=O)O)cc2c1O	culture	Herpes simplex virus		Human amnion AV3 cells		cytopathic effect	inhibition	50 µg/mL	0%
Clc1cccc(-c2cncc(N3CCN(c4ccccn4)CC3)n2)c1	target	Cytomegalovirus			UL97 kinase		IC50		<10 µM

A number after MIC or MFC names an inhibition level or a share of isolates. Conditions beyond the fields shown may differ between rows. Inhibition is in % at the dose shown (toxicity tests: loss of growth or viability). ICn: concentration for n% inhibition. An empty or dashed field is not shown.